# Laboratory results: PubChem BioAssay AID1259414 (Drosophila RNAi Screening Center, 2018)
# Purpose: 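Fly genes that alter Wolbachia amount inside host cells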 (primary screen)
# Cell system: Drosophila JW18 cells infected with Wolbachia
# Knock-down reagent: long dsRNA against Drosophila genes, 0.25 µg dsRNA per well of a 384-well plate
# Time to read-out: 5 days
# Conditions: cells persistently infected with Wolbachia before knock-down; no added drug
# Detection: 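Imaged fluorescence in situ signal for Wolbachia 23S rRNA per DAPI-counted host cell, given as a robust z-score within each plate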
# Direction: Wolbachia per cell robust z: higher = more Wolbachia per host cell than the plate typical
# Active means: 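Hit when robust z is 1.5 or more, or -1.5 or less, in at least two of three replicates; excludes dsRNAs with several or no targets, genes not expressed in JW18 and well A1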
# The deposit covers about 24,000 reagents; below is an unselected part of those that have a named target and a result. In the full data, about 1,210 (5%) were called active. 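Inactive calls also include excluded dsRNAs with several or no targets, genes unexpressed in JW18, and well A1, regardless of score.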 A number with no mark means an inactive call. The numbers tell different reagents against one gene apart. A plus sign joins genes that one reagent is predicted to hit.
The first 8 entries, ahead of the listing:
Target gene,reagent,"Wolbachia per cell robust z, rep 1","Wolbachia per cell robust z, rep 2","Wolbachia per cell robust z, rep 3"
Hmg-2 (High mobility group protein 2),1,0.105,1.04,0.204
Hmg-2 (High mobility group protein 2),2,-0.457,0.152,1.46
RhoGDI,1,-2.18,-0.74,0.417
CG3857,1,0.515,-6.37,-0.718
Tat (Tyrosine aminotransferase),1,0.529,0.591,0.856
ATP7,1,1.36,1.02,-0.233
bchs (blue cheese),1,2.19,0.0767,0.927
CG14630,1,0.634,-0.148,-1.5

Main list, from the start:
Target gene,reagent,"Wolbachia per cell robust z, rep 1","Wolbachia per cell robust z, rep 2","Wolbachia per cell robust z, rep 3"
Hmg-2 (High mobility group protein 2),1,0.105,1.04,0.204
Hmg-2 (High mobility group protein 2),2,-0.457,0.152,1.46
RhoGDI,1,-2.18,-0.74,0.417
CG3857,1,0.515,-6.37,-0.718
Tat (Tyrosine aminotransferase),1,0.529,0.591,0.856
ATP7,1,1.36,1.02,-0.233
bchs (blue cheese),1,2.19,0.0767,0.927
CG14630,1,0.634,-0.148,-1.5
CG14630,2,0.583,-0.857,-0.372
CG7579,1,0.0257,-1.26,0.24
Obp56i (Odorant-binding protein 56i),1,-0.328,-8.57,-0.355
CG33003,1,0.813,-0.0041,1.16
CG33003,2,-8.18,0.498,-0.3
CG15124,1,0.309,0.693,-0.0354
Hsl (Hormone-sensitive lipase),1,1.21,-0.148,-1.9
Sox102F,1,-0.939,0.0441,0.456
Sox102F,2,-0.194,0.192,1.4
CG30385,1,-0.867,1.69,-2.5
inaF-C,1,1.76,0.456,0.248
CG15236,1,-0.167,0.0438,-2.81
CG15236,2,-0.208,-0.635,0.681
CG15236,3,0.829,0.22,0.0566
Fancm (Fanconi anemia group M helicase),1,-0.373,1.04,1.23
CG3760,1,0.534,0.791,-1.06
Cht10 (Chitinase 10),1,-1.1,-0.632,-0.117
Cht10 (Chitinase 10),2,0.177,0.455,0.756
Cht10 (Chitinase 10),3,0.676,0.354,2.32
mus301 (mutagen-sensitive 301),1,-0.265,0.387,0.645
HipHop (HP1-HOAP-interacting protein),1,-0.377,-1.24,-0.317
dpr9 (defective proboscis extension response 9),1,0.705,1.23,0.774
dpr9 (defective proboscis extension response 9),2,-4.54,0.719,-0.719
dpr9 (defective proboscis extension response 9),3,1.34,-0.195,0.406
dpr9 (defective proboscis extension response 9),4,0.703,0.298,-0.309
Cbs (Cystathionine beta-synthase),1,1.12,-0.475,0.932
CG30187,1,-0.205,-0.775,-0.599
st (scarlet),1,0.0903,0.273,-1.94
st (scarlet),2,-2.01,-0.934,-4.37
CG30377,1,0.4,1.12,0.107
CG30377,2,-0.19,1.03,-1.03
CG4669,1,0.0927,-0.112,0.199
CAH2 (Carbonic anhydrase 2),1,0.723,-0.476,-3.85
Vha36-1 (Vacuolar H[+] ATPase 36kD subunit 1),1,-1.99 (active),-6.57,-0.858
Vha36-1 (Vacuolar H[+] ATPase 36kD subunit 1),2,0.475,-0.702,-0.645
LManIII (Lysosomal alpha-mannosidase III),1,-0.589,-0.459,-0.24
LManIII (Lysosomal alpha-mannosidase III),2,0.671,1.42,1.07
mib1 (mind bomb 1),1,0.854,1.38,-0.136
CG18540,1,-0.797,-0.986,-2.21
CG18540,2,-1.03,0.552,-1.93
CG31909,1,0.561,0.654,0.121
CG31909,2,-0.493,-2.42,0.13
"E(spl)mdelta-HLH (Enhancer of split mdelta, helix-loop-helix)",1,-0.264,0.0745,0.563
"E(spl)mdelta-HLH (Enhancer of split mdelta, helix-loop-helix)",2,-0.176,-0.334,-0.67
Eato (Engulfment ABC Transporter in the ovary),1,1.06,1.2,0.955
Eato (Engulfment ABC Transporter in the ovary),2,0.972,1.06,2.3
CG13318,1,0.113,0.261,-1.55
elB (elbow B),1,-1.09,-0.365,0.0899
Wdr92 (WD repeat domain 92),1,0.905,-0.0253,-1.7
CG7332,1,-0.828,-1.17,0.514
CG7332,2,1.03,0.31,0.89
CG7332,3,-0.353,0.562,-0.638
mst (misato),1,-0.738,0.323,0.502
Ktl (Kctd12-like),1,-0.175,-0.174,-0.517
CG45076 + CG45078 + fau,1,0.813,0.933,-0.592
CecC (Cecropin C),1,-1.27,0.681,-1.11
CG3164,1,0.97,-0.35,-0.331
CG13737,1,0.881,-1.38,-1.41
CG10096 + CG10097,1,-0.208,-0.186,-0.0415
CG10096 + CG10097,2,0.459,-6.14,-3.42
Mkk4 (MAP kinase kinase 4),1,1.25,-0.254,0.486
Mkk4 (MAP kinase kinase 4),2,-1.44,-0.151,0.409
CG45066 + CG45067,1,0.441,0.825,0.535
CG4476,1,-0.336,0.788,0.563
CG4476,2,-0.309,0.0491,0.288
CG8188,1,-0.114,0.318,-0.0921
CG8188,2,0.896,0.863,0.641
eca (eclair),1,0.128,0.44,0.153
Pfas (Phosphoribosylformylglycinamidine synthase),1,-3.18,-0.0329,1.68
CG33461,1,-1.95,-2.14,-1.65
CG33461,2,0.0602,0.463,-1.11
Rab30,1,-1.34,-0.349,-4.19
Rab30,2,-1.78,0.017,-0.395
CG6527,1,0.246,-0.23,-1.22
narya,1,-0.101,0.163,-7.26
CG3589,1,-0.542,0.753,-0.391
CG3589,2,-0.448,1.74,-1.45
CG8031,1,-0.192,0.106,0.0343
Fbp1 (Fat body protein 1),1,1.3,-0.265,-1.54
Fbp1 (Fat body protein 1),2,-0.499,-0.457,0.941
